Anti-infective test results gathered from many reports (values: NIAID ChemDB through PubChem).

Shared fields: cytotoxicity tests; cells: Huh7; endpoint: CC50

CCn is the concentration with n% toxicity to the cells. Conditions beyond the fields shown may differ between rows.

{"structure": "O=C(O)c1c(-c2ccco2)nc(SCc2nc3ccccc3[nH]2)[nH]c1=O", "method": "MTT", "value": "876 µM"}
{"structure": "COC(=O)c1cn([C@@H]2C[C@H](CCP(=O)(O)O)C[C@H]2O)nn1", "value": ">320 µM"}
{"structure": "O=C1COC2(CCN(C(=O)c3nn4c(C(F)(F)F)cc(C5CC5)cc4c3Cl)CC2)OC1", "method": "ATP", "value": ">50 µM"}
{"structure": "CN(C)Cc1c(C(=O)O)sc2c(C3CCCCC3)c(-c3ccc(Cl)cc3)n(C)c12", "value": ">30 µM"}
{"structure": "COc1c(C)c2c(c(O)c1C/C=C(\\C)CCC(=O)OCCN1CCOCC1)C(=O)OC2", "value": "2.3 µM"}
{"structure": "CC(C)[C@@H](C)/C=C/[C@@H](C)[C@H]1CC[C@H]2C3=CC=C4C[C@@H](O)CC[C@]4(C)[C@H]3CC[C@]12C", "method": "WST", "value": ">4 µg/mL"}
{"structure": "O=C(c1nn2c(C(F)(F)F)cc(C3CC3)cc2c1Cl)N1CCC2(CC1)OCC1(COC1)CO2", "method": "ATP", "value": ">50 µM"}
{"structure": "O=C(O)c1c(-c2ccc(O)cc2)nc(NCc2nc3ccccc3[nH]2)[nH]c1=O", "method": "MTT", "value": "987 µM"}
{"structure": "O=C(O)c1cc2c(s1)c(C1CCCCC1)c(-c1ccccc1)n2CCN1CCCC1", "value": ">87.5 µM"}
{"structure": "NC(=O)c1cn([C@@H]2C[C@H](CO)C[C@H]2O)nn1", "value": ">320 µM"}
{"structure": "O=C(O)c1c(-c2ccccc2Cl)nc(SCc2nc3ccccc3[nH]2)[nH]c1=O", "method": "MTT", "value": "978 µM"}
{"structure": "C[C@@]1(O)[C@H](O)[C@@H](CO)O[C@H]1c1cnc2c(N)ncnn12", "method": "MTT", "value": "34 µM"}
{"structure": "N#Cc1c(-c2ccc(F)cc2)nc(NCc2nc3ccccc3[nH]2)[nH]c1=O", "method": "MTT", "value": "643 µM"}
{"structure": "C[C@@]1(O)[C@H](O)[C@@H](CO)O[C@H]1c1cnc2c(=O)[nH]c(N)nn12", "method": "MTT", "value": ">100 µM"}
{"structure": "CN(Cc1ccccc1)Cc1c(C(=O)O)sc2c(C3CCCCC3)c(-c3ccccc3)[nH]c12", "value": ">85 µM"}
{"structure": "N#Cc1c(-c2ccccc2O)nc(SCc2nc3ccccc3[nH]2)[nH]c1=O", "method": "MTT", "value": "311 µM"}
{"structure": "CCOC(=O)[C@H](C)N[P@](=O)(OC[C@H]1O[C@@H](n2cnc3c(N)nc(N)nc32)[C@](C)(O)[C@@H]1O)Oc1ccccc1CCC(=O)OC(C)C", "value": ">10 µM"}
{"structure": "COC(=O)c1cn([C@@H]2C[C@H](CO)C[C@H]2O)nn1", "value": ">320 µM"}
{"structure": "CN1CCCC(CNC(=O)Cn2c(-c3ccc(Cl)cc3)c(C3CCCCC3)c3sc(C(=O)O)cc32)C1", "value": ">19.25 µM"}
{"structure": "C=CC[C@@H]1/C=C(/C)C[C@H](C)C[C@H](OC)[C@H]2O[C@@](O)(C(=O)C(=O)N3CCCC[C@H]3C(=O)O[C@H](/C(C)=C/[C@@H]3CC[C@@H](O)[C@H](OC)C3)[C@H](C)[C@@H](O)CC1=O)[C@H](C)C[C@@H]2OC", "value": "100 µM"}
{"structure": "CC(C)OC(=O)[C@H](C)N[P@](=O)(OC[C@H]1O[C@@](C#N)(c2ccc3c(N)ncnn23)[C@](C)(O)[C@@H]1OC(=O)C(C)C)Oc1ccccc1", "method": "ATP", "value": "29 µM"}
{"structure": "C[C@@]1(O)[C@H](O)[C@@H](CO)O[C@H]1n1cnc2c(N)ncnc21", "method": "MTS", "value": "66 µM"}
{"structure": "COCn1c(-c2ccccc2)c(C2CCCCC2)c2sc(C(=O)O)c(CN(C)Cc3ccccc3)c21", "value": ">27.5 µM"}
{"structure": "CCOC(=O)CCc1ccccc1O[P@@](=O)(N[C@@H](C)C(=O)OCC)OC[C@H]1O[C@@H](n2cnc3c(N)nc(N)nc32)[C@](C)(O)[C@@H]1O", "value": ">10 µM"}
{"structure": "O=C(c1nn2c(C(F)(F)F)cc(C3CC3)cc2c1Cl)N1CCCC2(C1)OCCCO2", "method": "ATP", "value": ">50 µM"}
{"structure": "NC(=O)c1nnn([C@@H]2C[C@H](CO)C[C@H]2O)c1N", "value": ">320 µM"}
{"structure": "O=C(O)c1c(-c2ccccc2Cl)nc(NCc2nc3ccccc3[nH]2)[nH]c1=O", "method": "MTT", "value": "953 µM"}
{"structure": "CN1CCCC(CN(C)C(=O)Cn2c(-c3ccccc3)c(C3CCCCC3)c3sc(C(=O)O)cc32)C1", "value": ">30 µM"}
{"structure": "CC[C@@H]1/C=C(\\C)C[C@H](C)C[C@H](OC)[C@H]2O[C@@](O)(C(=O)C(=O)N3CCCC[C@H]3C(=O)O[C@H](/C(C)=C/[C@H]3CC[C@H](O)[C@H](OC)C3)[C@H](C)[C@@H](O)CC1=O)[C@H](C)C[C@@H]2OC", "value": "60 µM"}
{"structure": "CC(Cc1ccc(O)c(O)c1)C(C)Cc1ccc(O)c(O)c1", "value": "70 µM"}
{"structure": "CC(C)N1CCC(N2CCn3c(c(C4CCCCC4)c4sc(C(=O)O)cc43)-c3ccccc3C2)C1", "value": ">3.75 µM"}
{"structure": "Cc1c(N)nc([C@H](CC(N)=O)NC[C@H](N)C(N)=O)nc1C(=O)N[C@H](C(=O)N[C@H](C)[C@@H](O)[C@H](C)C(=O)N[C@H](C(=O)NCCc1nc(-c2nc(C(=O)NCCC[S+](C)C)cs2)cs1)[C@@H](C)O)C(O[C@@H]1O[C@@H](CO)[C@@H](O)[C@H](O)[C@@H]1O[C@H]1O[C@H](CO)[C@@H](O)[C@H](OC(N)=O)[C@@H]1O)c1cnc[nH]1", "value": ">10 µM"}
{"structure": "N#Cc1c(-c2ccccc2-c2ccco2)nc(SCc2nc3ccccc3[nH]2)[nH]c1=O", "method": "MTT", "value": "657 µM"}
{"structure": "CC(=O)CC[C@H]1C(=O)N[C@@H](C(C)C)C(=O)N[C@@H](Cc2cccc(O)c2)C(=O)N2CCCC(N2)C(=O)O[C@H](/C(C)=C/C=C/C(=O)N2CCCCO2)C/C=C/C=C/[C@H](O)[C@H](C)[C@H]1O", "method": "MTT", "value": ">200 µM"}
{"structure": "CC(C)OC(=O)CCc1ccccc1OP(=O)(N[C@@H](C)C(=O)OC(C)C)OC[C@H]1O[C@@H](n2cnc3c(N)nc(N)nc32)[C@](C)(O)[C@@H]1O", "value": ">10 µM"}
{"structure": "N#Cc1c(-c2ccc(F)cc2)nc(SCc2nc3ccccc3[nH]2)[nH]c1=O", "method": "MTT", "value": "245 µM"}
{"structure": "CC(C)OC(=O)CCc1ccccc1O[P@](=O)(N[C@@H](C)C(=O)OC(C)C)OC[C@H]1O[C@@H](n2cnc3c(N)nc(N)nc32)[C@](C)(O)[C@@H]1O", "value": ">10 µM"}
{"structure": "C[C@@]1(O)[C@H](O)[C@@H](CO)O[C@H]1c1cnn2c(N)ncnc12", "method": "MTT", "value": ">100 µM"}

A second listing of 3 rows from above:

{"structure": "CC(C)N1CCC(N2CCn3c(c(C4CCCCC4)c4sc(C(=O)O)cc43)-c3ccccc3C2)C1", "value": ">3.75 µM"}
{"structure": "C[C@@]1(O)[C@H](O)[C@@H](CO)O[C@H]1c1cnc2c(=O)[nH]c(N)nn12", "method": "MTT", "value": ">100 µM"}
{"structure": "O=C(O)c1cc2c(s1)c(C1CCCCC1)c(-c1ccccc1)n2CCN1CCCC1", "value": ">87.5 µM"}